PMC8184657 (iScience, 2021)

Protein sequences, listed by entry. Tags and fused reporters are not part of them. Residues count along the entry.
UniProt P01317, 25-54 limits assumed: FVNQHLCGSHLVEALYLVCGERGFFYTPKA
UniProt P01317, 85-105 limits assumed: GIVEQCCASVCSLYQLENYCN

Assays:
human insulin [1] = assay type: biochemical
human insulin [2] = assay type: biochemical; remark: listed apart in the source
insulin [3] = target: T1, insulin (Bos taurus, UniProt P01317); assay type: biochemical
insulin [4] = target: T1, insulin; assay type: biochemical; remark: listed apart in the source
BALB/c mice = conditions: mouse, in vivo, sc
insulin [5] = target: T1, insulin; assay type: biochemical; remark: listed apart in the source

Substance	average hydrodynamic radius (human insulin [1]) [nm]	hydrodynamic radius (human insulin [1]) [nm]	elution volume (size exclusion) (human insulin [2]) [mL]	elution (size exclusion) (human insulin [2]; pH 2.6)	diffusion coefficient (D) (insulin [3])	molecular weight from DOSY (insulin [3])	hydrodynamic radius of insulin (insulin [4]) [nm]	amyloidoma formation (BALB/c mice)	secondary structure retention on heating (CD) (insulin [5])
human insulin	1.358	531 to 3580	118.5	broad peak was observed within the void volume					
insulin					9.4 × 10^−5 cm^2sec^−1	approximately 57.0 kDa	1000	forms a mass of extracellular amyloid fibrils in mice	loss of α-helical conformation
